Results of unrelated studies side by side (data: NIAID ChemDB).

All rows: whole-cell or culture tests; species: Candida krusei; endpoint: MIC

An empty or dashed field is not shown.

| compound | setting | strain | method | result |
|---|---|---|---|---|
| O=C(CCn1ccnc1)c1ccc(Br)cc1 |  | RTCC 1090 | broth dilution | >64 µg/mL |
| CC1CC(=O)N(CCCCc2ccccc2)C1=O |  | CCC 117-2000 | broth dilution / turbidity | 125 µg/mL |
| Cc1ccc(C(O)c2cccc(C(O)CCn3ccnc3)c2)cc1 |  | RTCC 1001 | broth dilution | >64 µg/mL |
| CCCCCCCCCCCCCCC1=NCCCC1 |  | ATCC 6258 |  | 20 µg/mL |
| CCCc1ccc(NS(=O)(=O)c2ccc(CN(C)CC(O)(Cn3cncn3)c3ccc(F)cc3F)cc2)cc1 |  | 506 | resazurin | 1.2 µg/mL |
| CO[N-]c1nc(N(C)C)nc2c1[N+](C/C=C(\C)CC/C=C(\C)CC/C=C(\C)CCC=C(C)C)=C=[N+]2C |  | ATCC 6258 | agar | 2 µg/mL |
| CC1C(=O)N(CCCc2ccccc2)C(=O)C1C |  | CCC 117-2000 | broth dilution / turbidity | 125 µg/mL |
| CCOC(=O)C1C(=O)C=C(c2ccc(OC)cc2)CC1c1ccc(C2CC(c3ccc(OC)cc3)=CC(=O)C2C(=O)OCC)cc1 |  | Clinical isolate |  | 100 µg/mL |
| CN(Cc1ccc(S(=O)(=O)Nc2ccc([N+](=O)[O-])cc2)cc1)CC(O)(Cn1cncn1)c1ccc(F)cc1F |  | 8 | resazurin | 1.9 µg/mL |
| C[C@@H]1CC(=O)N(Cc2ccccc2)C1=O |  | CCC 117-2000 | broth dilution / turbidity | 62.5 µg/mL |
| O=C(CCn1ccnc1)c1ccc(-c2ccccc2)cc1 |  | RTCC 1001 | broth dilution | 8 µg/mL |
| Ic1ccc(-c2csc(N/N=C\c3cccc4ccccc34)n2)cc1 | 24 h | Clinical isolates |  | 2 µg/mL |
| CC(C)c1ccc(S(=O)(=O)Nc2ccc(CN(C)CC(O)(Cn3cncn3)c3ccc(F)cc3F)cc2)cc1 |  | 8 | resazurin | 1.5 µg/mL |
| CCCCCCCCCCCCCCCC(=O)NC(CCCCN)C(=O)NC(CCCCN)C(N)=O |  | 6258 | broth dilution | 2 µg/mL |
| COC(=O)c1ccc(C[C@H](C(=O)OC)[C@@H](O)C(=O)OC)cc1 |  | DSM 6128 |  | 2 µg/mL |
| O=C(CCn1ccnc1)c1cccc(C(O)c2ccc(Br)cc2)c1 |  | RTCC 1001 | broth dilution | >64 µg/mL |
| CO/N=C/C(C)(C)C(O)(Cn1cncn1)c1ccc(Cl)cc1 |  |  | visual reading | 4 µg/mL |
| CN(Cc1ccc(S(=O)(=O)N2CCOCC2)cc1)CC(O)(Cn1cncn1)c1ccc(F)cc1F |  | 8 | resazurin | 2.7 µg/mL |
| CCOC(=O)C1C(=O)C=C(c2ccc(C)cc2)CC1c1ccc(C2CC(c3ccc(C)cc3)=CC(=O)C2C(=O)OCC)cc1 |  | Clinical isolate |  | 25 µg/mL |
| CCCCCCCC/C=C\CCCCCCCC(=O)N[C@H](C(=O)N1C[C@H](C)C[C@H]1C(=O)N[C@H](C(=O)N[C@@H](CCO)C(=O)N[C@@H](C)C=O)C(C)C)[C@@H](C)O |  | ATCC 6258 | broth dilution / visual reading | 2 µg/mL |
| CC1CC(=O)N(c2ccc(F)cc2F)C1=O |  | CCC 117-2000 | broth dilution / turbidity | 125 µg/mL |
| CO[N-]c1nc(Cl)nc2c1[N+](C/C=C(\C)CC/C=C(\C)CC/C=C(\C)CCC=C(C)C)=C=[N+]2C |  | ATCC 6258 | agar | >16 µg/mL |
| CN(Cc1ccc(NS(=O)(=O)c2ccccc2)cc1)CC(O)(Cn1cncn1)c1ccc(F)cc1F |  | 8 | resazurin | 1.7 µg/mL |
| CC(C)(O)c1cn(-c2ccc(Cl)cc2)nn1 |  | URM 109 | broth dilution | 128 µg/mL |
| CC1C(=O)N(CCc2ccccc2)C(=O)C1C |  | CCC 117-2000 | broth dilution / turbidity | 250 µg/mL |
| O=C(CCn1ccnc1)c1cccc(C(O)c2ccc(Cl)cc2)c1 |  | RTCC 1090 | broth dilution | 64 µg/mL |
| CC(C)=CCN=C(NCC=C(C)C)NCC=C(C)C |  | ATCC 6258 |  | 62.5 µg/mL |
| C[C@H]1[C@H](O)[C@@H](C)/C=C/C=C/C=C/C=C/C=C/C=C/C=C/[C@H](O[C@@H]2O[C@H](C)[C@@H](O)[C@H](N)[C@@H]2O)C[C@@H]2O[C@](O)(C[C@@H](O)C[C@@H](O)CC[C@H](O)[C@@H](O)C[C@@H](O)CC(=O)O[C@H]1C)C[C@H](O)[C@H]2C(=O)O |  | CCC 117-2000 | broth dilution / turbidity | 0.49 µg/mL |
| CC(C)(O)c1cn(-c2ccc(Br)cc2)nn1 |  | URM 1059 | broth dilution | 512 µg/mL |
| CC1C(=O)N(Cc2ccccc2)C(=O)C1C |  | CCC 117-2000 | broth dilution / turbidity | 125 µg/mL |
| CCOC(=O)C1C(=O)C=C(c2ccc(F)cc2)CC1c1ccc(C2CC(c3ccc(F)cc3)=CC(=O)C2C(=O)OCC)cc1 |  | Clinical isolate |  | 6.25 µg/mL |
| CC(C)CC1NC(=O)CC(CCCCCCCCC(C)O)OC(=O)C(CC(C)C)NC(=O)C(CC(C)C)NC(=O)C(CC(C)C)NC(=O)C(C(C)C)NC(=O)C(CC(=O)O)NC(=O)C(CC(C)C)NC1=O |  | Clinical isolate | absorbance | 2 µg/mL |
| CC(C)=CCC/C(C)=C/CN=C(N)NC/C=C(\C)CCC=C(C)C |  | ATCC 6258 |  | 62.5 µg/mL |

The last 4 rows once more:

| compound | setting | strain | method | result |
|---|---|---|---|---|
| CC1C(=O)N(Cc2ccccc2)C(=O)C1C |  | CCC 117-2000 | broth dilution / turbidity | 125 µg/mL |
| CCOC(=O)C1C(=O)C=C(c2ccc(F)cc2)CC1c1ccc(C2CC(c3ccc(F)cc3)=CC(=O)C2C(=O)OCC)cc1 |  | Clinical isolate |  | 6.25 µg/mL |
| CC(C)CC1NC(=O)CC(CCCCCCCCC(C)O)OC(=O)C(CC(C)C)NC(=O)C(CC(C)C)NC(=O)C(CC(C)C)NC(=O)C(C(C)C)NC(=O)C(CC(=O)O)NC(=O)C(CC(C)C)NC1=O |  | Clinical isolate | absorbance | 2 µg/mL |
| CC(C)=CCC/C(C)=C/CN=C(N)NC/C=C(\C)CCC=C(C)C |  | ATCC 6258 |  | 62.5 µg/mL |

Neighbouring rows are from separate reports.